Data as given in PubChem BioAssay AID1259414 (Drosophila RNAi Screening Center, 2018).
Screen: 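Fly genes that alter Wolbachia amount inside host cells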 (primary screen). System: Drosophila JW18 cells infected with Wolbachia. Knock-down reagent: long dsRNA against Drosophila genes, 0.25 µg dsRNA per well of a 384-well plate. Duration: 5 days. Conditions: cells persistently infected with Wolbachia before knock-down; no added drug. Measurement: 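Automated imaging of bacterial rRNA staining divided by host cell count, reported as plate-normalised robust z-score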. Direction: Wolbachia per cell robust z: higher = more Wolbachia per host cell than the plate typical. Hit rule: 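Hit when robust z is 1.5 or more, or -1.5 or less, in at least two of three replicates; excludes dsRNAs with several or no targets, genes not expressed in JW18 and well A1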.
The screen tested about 24,000 reagents; shown is a random part of those with a known target gene and a result. Over the whole deposit, about 1,210 (5%) are marked active. 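Inactive calls also include excluded dsRNAs with several or no targets, genes unexpressed in JW18, and well A1, regardless of score.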 Names joined by + are all predicted targets of the reagent. No sequences are given here.

no.	Gene	DRSC id	Wolbachia per cell robust z, rep 1	Wolbachia per cell robust z, rep 2	Wolbachia per cell robust z, rep 3	outcome
1	hop	DRSC20340	0.639	1.51	-3.44	inactive
2	hop	DRSC23334	0.545	-0.211	-0.987	inactive
3	hop	DRSC26551	-0.411	-1.05	-0.833	inactive
4	DIP-epsilon	DRSC00932	0.222	0.0916	-0.348	inactive
5	DIP-epsilon	DRSC02313	-1.02	0.842	-0.359	inactive
6	DIP-epsilon	DRSC26835	-1.95	0.109	-0.827	inactive
7	RpL15	DRSC20963	1.48	-0.613	-0.424	inactive
8	bowl	DRSC00805	-2.06	0.183	-1.21	inactive
9	bowl	DRSC28379	1.78	-1.53	0.456	inactive
10	Tif-IA	DRSC03717	1.05	1.25	1.12	inactive
11	Tif-IA	DRSC03726	0.423	1.09	0.897	inactive
12	Jhbp6	DRSC11714	0.0695	0.709	-0.325	inactive
13	Jhbp6	DRSC26892	0.194	0.419	-1.3	inactive
14	ss	DRSC17069	-1.14	0.353	-0.911	inactive
15	Ae2	DRSC08997	-1.18	-1.05	-1.05	inactive
16	Ae2	DRSC10969	-4.84	1.24	-8.37	active
17	Had1	DRSC20216	0.198	-0.465	-0.0476	inactive
18	CG34126	DRSC02726	-0.238	0.626	-1.11	inactive
19	CG34126	DRSC22079	0.996	-1.81	-0.97	inactive
20	CG10405	DRSC14238	0.873	0.736	1.1	inactive
21	Prosalpha6	DRSC03401	2.7	2.31	2.09	active
22	mRpL52	DRSC06585	0.193	0.105	0.588	inactive
23	Ppt1	DRSC17806	-0.653	-2.99	0.0176	inactive
24	CG31248	DRSC22722	-0.88	-1.67	-0.09	inactive
25	Irbp	DRSC17007	-2.09	-0.341	-3.9	active
26	Irbp	DRSC23317	0.181	-0.321	-0.476	inactive
27	Irbp	DRSC29386	1.47	0.551	0.228	inactive
28	CG13113	DRSC02211	-0.677	-0.508	-7.15	inactive
29	CG13113	DRSC41524	-0.572	-1.16	-1.22	inactive
30	Elk	DRSC07608	0.349	-0.52	-0.545	inactive
31	2SrRNA-Psi:CR40677	DRSC38646	-7.04	-0.24	-1.12	inactive
32	pen-2	DRSC05722	2.24	0.396	1.13	inactive

Continued; the last 2 above are carried over.
no.	Gene	DRSC id	Wolbachia per cell robust z, rep 1	Wolbachia per cell robust z, rep 2	Wolbachia per cell robust z, rep 3	outcome
31	2SrRNA-Psi:CR40677	DRSC38646	-7.04	-0.24	-1.12	inactive
32	pen-2	DRSC05722	2.24	0.396	1.13	inactive
33	CG10681	DRSC09777	-5.65	0.0128	0.261	inactive
34	CG10681	DRSC21484	0.114	1.23	1.09	inactive
35	CG10681	DRSC27329	-5.1	-0.105	0.527	inactive
36	Snup + CG42304	DRSC08276	-0.905	-2.78	-0.235	inactive
37	Snup + CG42304	DRSC22781	-2.4	-0.177	-2.08	inactive
38	CG34155	DRSC13991	0.225	-1.38	1.04	inactive
39	CG3308	DRSC15474	-0.744	0.109	2.92	inactive
40	SLC22A	DRSC11826	0.0669	0.239	-0.0332	inactive
41	SLC22A	DRSC11827	-0.524	0.504	-0.744	inactive
42	CG11127	DRSC06043	0.548	-4.68	-1.52	active
43	CG15472	DRSC18055	-1.45	-2.89	-1.33	inactive
44	CG34433	DRSC15077	-0.238	0.984	0.04	inactive
45	Nemp	DRSC20206	-1.24	0.0923	-1.1	inactive
46	Nemp	DRSC26963	-0.0426	1.28	0.7	inactive
47	CG17344	DRSC02607	1.49	-1.3	1.11	inactive
48	colt	DRSC00808	-0.399	0.616	-0.00812	inactive
49	colt	DRSC29025	0.775	1.25	0.468	inactive
50	CG14285	DRSC14766	-5.27	0.406	-0.537	inactive
51	beta4GalT7	DRSC14385	-0.0139	-1.15	-4.6	inactive
52	Lcp9	DRSC04287	0.413	0.358	0.554	inactive
53	CG42488 + CG5116	DRSC40639	0.162	-1.11	-0.458	inactive
54	CG6683	DRSC10694	0.646	-0.918	-0.608	inactive
55	CG6683	DRSC25674	-0.312	0.433	-0.608	inactive
56	dsx	DRSC12649	-0.827	-0.277	-4.24	inactive
57	dsx	DRSC16934	0.762	-0.131	0.626	inactive
58	dsx	DRSC21495	-0.21	0.549	0.295	inactive
59	dsx	DRSC26707	-0.127	0.192	-0.0478	inactive
60	dsx	DRSC40763	-2.79	0.27	0.3	inactive
61	Smyd4-3	DRSC07041	0.252	-0.401	-2.04	inactive
62	Smyd4-3	DRSC28851	0.696	-1.37	-0.272	inactive
63	Txl	DRSC11310	1.12	1.27	1.31	inactive
64	Rab21	DRSC20968	0.598	0.591	0.769	inactive
65	Rab21	DRSC28617	1.24	0.787	0.62	inactive
66	CG14787	DRSC18606	0.452	-1.48	1.03	inactive
67	Akh	DRSC08138	-0.641	-1.01	-1.28	inactive
68	Akh	DRSC28433	-0.536	0.0419	-0.3	inactive
